{
  "source": "patent US20110268740A1",
  "about": "(INTERCELL, published 2011)",
  "binders": {"B1": {"name": "fully human IgG1κ-D005 (antibody, V domains shown)", "VH": "EVQLVESGGALVQPGRSLRLSCRTSGLNFGDYPINWVRQAPGKGLEWVGFIKSKSYGVTTEFAASVEGRFTISRDDSRGIAYLQMNSLKTEDTAVYYCTSSSGFLYYFDYWGQGTLVTVSS", "VL": "DIVMTQSPDSLAVSLGERATINCKSSQSVLYTSNNKNYLGWYQQKPGQPPNLLIYWASTRESGVPDRFSGSGSGTDFTLTINSVQAEDVAVYYCQQYFMTPITFGQGTRLEIKR"}, "B2": {"name": "scFv-E040-msFcγ2c (Fc fusion)", "chain": "DADPAQAAELVMTQSPDSLAVSLGERATINCKSSQSVLYSSNNENYLAWYQQKPGQPPKLLIYWASTRESGVPDRFSGSGSGTDFTLTINSVQAEDVAVYYCQQYFMTPITFGQGTRLEIKGGSSRSSSSGGGGSGGGGEVQLLESGGALVQPGRSLRLSCRTSGLNFGDYPINWVRQAPGKGLEWVGFIKSKSYGVTTEFAASVEGRFTISRDDSRGIAYLQMNSLKTEDTAVYYCTSSSGFLYYFDYWGQGTLVTVSSASTKGPSVTSGQAGRKLEPRVPITQNPCPPLKECPPCAAPDLLGGPSVFIFPPKIKDVLMISLSPMVTCVVVDVSEDDPDVQISWFVNNVEVHTAQTQTHREDYNSTLRVVSALPIQHQDWMSGKEFKCKVNNRALPSPIEKTISKPRGPVRAPQVYVLPPPAEEMTKKEFSLTCMITGFLPAEIAVDWTSNGRTEQNYKNTATVLDSDGSYFMYSKLRVQKSTWERGSLFACSVVHEGLHNHLTTKTISRSLGK"}, "B3": {"name": "scFv-D005-msFcγ2c (Fc fusion)", "chain": "B2 chain with S40T, E44K, A48G, K59N, L144V"}, "B4": {"name": "scFv-F052-msFcγ2c (Fc fusion)", "chain": "B2 chain with L10R, S18A, V37L, E44K, Q52K, D84E, R117K, E140Q, L144Q"}},
  "key": {"[1]": {"target": "T1, M2-PR, full-length M2 of mouse-adapted H1N1 Influenza A PR8, on cells (Influenza A virus A/PR/8/34 (H1N1))", "T1 chain": "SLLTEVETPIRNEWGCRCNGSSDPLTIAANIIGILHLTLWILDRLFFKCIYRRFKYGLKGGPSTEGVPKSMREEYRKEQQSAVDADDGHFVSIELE", "assay": "flow cytometry on transfected 293T cells expressing M2-PR"}, "[2]": {"target": "M2-VN/PR fusion protein on 293T cells (Influenza A virus (strain …))", "assay": "flow cytometry on transfected 293T cells expressing M2-VN/PR"}, "[3]": {"target": "T1, M2-PR, full-length M2 of mouse-adapted …", "assay": "flow cytometry on L929-M2#E9 cells expressing M2-PR"}},
  "note": "Positions count from the first letter of the chain named.",
  "data": [
    {"binder": "B1", "values": [
      {"measurement": "EC50", "setting": "[1]", "value": 3.9, "unit": "nM"},
      {"measurement": "EC50", "setting": "[2]", "value": 3.9, "unit": "nM"}
    ]},
    {"binder": "B2", "values": [
      {"measurement": "EC50", "setting": "[3]", "value": 0.73, "unit": "nM"}
    ]},
    {"binder": "B3", "values": [
      {"measurement": "EC50", "setting": "[3]", "value": 0.68, "unit": "nM"}
    ]},
    {"binder": "B4", "values": [
      {"measurement": "EC50", "setting": "[3]", "value": 0.46, "unit": "nM"}
    ]}
  ]
}
